Measurements reported in paper PMC5158307, “Substrate specificity characterization for eight putative nudix hydrolases. Evaluation of criteria for substrate identification within the Nudix family” (Proteins, 2016).

How the values were obtained:
Assay in all cases: purified protein
Settings in all cases: pH 7.6; 37.0 °C
[1] = system: Nc1nc2c([nH]c(=O)n2[C@@H]2O[C@H](CO[P@@](=O)(O)O[P@@](=O)(O)OP(=O)(O)O)[C@@H](O)[C@H]2O)c(=O)[nH]1
[2] = system: Nc1nc2c([nH]c(=O)n2[C@H]2C[C@H](O)[C@@H](COP(=O)(O)OP(=O)(O)OP(=O)(O)O)O2)c(=O)[nH]1
[3] = system: Nc1nc2c(ncn2[C@H]2C[C@H](O)[C@@H](COP(=O)(O)OP(=O)(O)OP(=O)(O)O)O2)c(=O)[nH]1
[4] = system: Nc1ncnc2c1[nH]c(=O)n2[C@H]1C[C@H](O)[C@@H](COP(=O)(O)OP(=O)(O)OP(=O)(O)O)O1
[5] = system: Nc1nc2c(ncn2[C@@H]2O[C@H](COP(=O)(O)OP(=O)(O)OP(=O)(O)O)[C@@H](O)[C@H]2O)c(=O)[nH]1

Substance | Km [1] | kcat/Km [1] | Km [2] | kcat/Km [2] | Km [3] | kcat/Km [3] | Km [4] | kcat/Km [4] | Km [5] | kcat/Km [5]
Q0TTC5_CLOP1 (Clostridium perfringens ATCC 13124) | 2.2 ± 0.4 µM | 1.2e+06 M⁻¹ s⁻¹ | 1.4 ± 0.3 µM | 430000 M⁻¹ s⁻¹ | 38 ± 12 µM | 180000 M⁻¹ s⁻¹ | 0.93 ± 0.26 µM | 2.8e+06 M⁻¹ s⁻¹ | – | –
Q0TS82_CLOP1 (Clostridium perfringens ATCC 13124) | – | – | – | – | – | – | – | – | 59 ± 6 µM | 4400 ± 100 M⁻¹ s⁻¹
